## Potato spindle tuber viroid, loop 15: variant abundance in plants

PSTVd intermediate strain, loop 15: wild type GGAAACCGCUACUAC, pool pattern GGAAACCGNNNNNNC; upper and lower strand joined, each 5' to 3', the first 7 letters being the upper strand, closing pairs included.

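A pool of all variants was put on leaves of three Nicotiana benthamiana plants. Progeny were sequenced from the inoculated region (day 5), the margin of the inoculated leaf (day 10) and systemic leaves (day 12).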

Numbers give reads per thousand; 0 = not seen among the reads, higher = more abundant.
Each site shows the three plants.
"Pool" is the share in the plasmid pool used as inoculum, on the same scale.
The inoculated region was read from the minus strand, the other sites from the plus strand.
Wild type was 33.9 per thousand in the pool and the most common sequence in every sample (inoculated region 202, 200, 159; leaf margin 724, 746, 710; systemic leaves 856, 883, 880).

sequence	pool	inoculated region	leaf margin	systemic leaves
GGAAACCGCUCACAC	0.256	0.180 / 0.193 / 0.0952	0 / 0.0445 / 0.0200	0 / 0 / 0
GGAAACCGCUCACCC	0.256	0.131 / 0.0803 / 0.114	0.0162 / 0.0223 / 0	0.0161 / 0 / 0
GGAAACCGCUCACGC	0.368	0.147 / 0.225 / 0.114	0.0162 / 0.0668 / 0.0401	0.0161 / 0 / 0
GGAAACCGCUCACUC	0.176	0.0655 / 0.129 / 0.171	0.0162 / 0 / 0.0200	0 / 0 / 0
GGAAACCGCUCAGAC	0.256	0.0491 / 0.0964 / 0.0952	0 / 0 / 0.0801	0.0161 / 0 / 0
GGAAACCGCUCAGCC	0.400	0.0819 / 0.112 / 0.133	0 / 0 / 0	0 / 0 / 0.0228
GGAAACCGCUCAGGC	0.352	0.0819 / 0.0964 / 0.190	0.0162 / 0 / 0	0 / 0 / 0
GGAAACCGCUCAGUC	0.288	0.0491 / 0.0643 / 0.133	0.0162 / 0.0223 / 0.0200	0.0161 / 0 / 0
GGAAACCGCUCAUAC	0.304	0.328 / 0.273 / 0.381	0.0970 / 0.156 / 0.160	0.0161 / 0.0454 / 0.0456
GGAAACCGCUCAUCC	0.224	0.0491 / 0.0482 / 0.0190	0.0162 / 0.0223 / 0.0200	0.0161 / 0 / 0.0228
GGAAACCGCUCAUGC	0.304	0.0819 / 0.0803 / 0.209	0 / 0 / 0.0401	0 / 0 / 0
GGAAACCGCUCAUUC	0.224	0.229 / 0.273 / 0.267	0.178 / 0.0668 / 0.0801	0.0322 / 0 / 0.0228
GGAAACCGCUCCAAC	0.192	0.147 / 0.112 / 0.0762	0.0162 / 0 / 0	0 / 0 / 0
GGAAACCGCUCCACC	0.304	0.0655 / 0.0321 / 0.114	0 / 0 / 0.0200	0 / 0 / 0
GGAAACCGCUCCAGC	0.224	0.0983 / 0.161 / 0.0952	0 / 0 / 0.0200	0.0161 / 0 / 0
GGAAACCGCUCCAUC	0.160	0.0655 / 0.0482 / 0.171	0 / 0.0223 / 0.0200	0.0161 / 0 / 0
GGAAACCGCUCCCAC	0.256	0.0491 / 0.0803 / 0.133	0.0162 / 0.0223 / 0	0 / 0 / 0.0228
GGAAACCGCUCCCCC	0.160	0.0983 / 0.129 / 0.0571	0.0162 / 0 / 0.0200	0 / 0 / 0
GGAAACCGCUCCCGC	0.176	0.0819 / 0.0803 / 0.0381	0 / 0 / 0	0.0161 / 0 / 0
GGAAACCGCUCCCUC	0.144	0.0491 / 0.0964 / 0.0762	0.0162 / 0 / 0.0200	0 / 0 / 0
GGAAACCGCUCCGAC	0.336	0.131 / 0.129 / 0.0952	0.0970 / 0.0445 / 0.0801	0.0322 / 0.0151 / 0
GGAAACCGCUCCGCC	0.304	0.180 / 0.0803 / 0.0952	0 / 0.0223 / 0	0.0161 / 0 / 0
GGAAACCGCUCCGGC	0.144	0.0819 / 0.0964 / 0.0762	0 / 0 / 0.0200	0.0322 / 0 / 0
GGAAACCGCUCCGUC	0.320	0.115 / 0.112 / 0.114	0.0162 / 0.0445 / 0.0200	0.0161 / 0 / 0
GGAAACCGCUCCUAC	1.46	0.819 / 0.626 / 0.800	1.00 / 0.646 / 1.08	0.724 / 0.726 / 0.0456
GGAAACCGCUCCUCC	0.224	0.0983 / 0.0643 / 0.114	0.0162 / 0.0445 / 0.0601	0.0483 / 0.0151 / 0
GGAAACCGCUCCUGC	0.288	0.115 / 0.0803 / 0.0381	0.0323 / 0 / 0.0200	0 / 0 / 0
GGAAACCGCUCCUUC	0.272	0.229 / 0.257 / 0.286	0.113 / 0.134 / 0.140	0.0322 / 0 / 0.0228
GGAAACCGCUCGAAC	0.272	0.278 / 0.241 / 0.381	0.0808 / 0.0668 / 0.180	0 / 0.0908 / 0.0912
GGAAACCGCUCGACC	0.208	0.0983 / 0.0643 / 0.0381	0 / 0 / 0	0 / 0 / 0
GGAAACCGCUCGAGC	0.352	0.0328 / 0.0964 / 0.0571	0.0162 / 0 / 0.0200	0 / 0 / 0
GGAAACCGCUCGAUC	0.160	0.295 / 0.305 / 0.171	0.0647 / 0.111 / 0.120	0.0805 / 0 / 0
GGAAACCGCUCGCAC	0.240	0.0819 / 0.0643 / 0.0190	0 / 0 / 0	0 / 0 / 0
GGAAACCGCUCGCCC	0.192	0.0328 / 0.0643 / 0.133	0.0162 / 0 / 0	0 / 0 / 0.0228
GGAAACCGCUCGCGC	0.304	0.0819 / 0.145 / 0.0571	0.0323 / 0 / 0.0200	0 / 0 / 0
GGAAACCGCUCGCUC	0.256	0.131 / 0.129 / 0.228	0 / 0.0223 / 0.0200	0 / 0 / 0.0228
GGAAACCGCUCGGAC	0.352	0.377 / 0.434 / 0.286	0.129 / 0.0445 / 0.120	0 / 0 / 0
GGAAACCGCUCGGCC	0.192	0.0983 / 0.112 / 0.0571	0.0162 / 0 / 0.0401	0 / 0 / 0
GGAAACCGCUCGGGC	0.144	0.0491 / 0.129 / 0.0952	0.0162 / 0 / 0.0200	0 / 0 / 0
GGAAACCGCUCGGUC	0.288	0.197 / 0.225 / 0.476	0.146 / 0.0891 / 0.140	0.0161 / 0 / 0
GGAAACCGCUCGUAC	0.256	0.377 / 0.353 / 0.609	0.0808 / 0.0445 / 0.180	0.0322 / 0.0756 / 0.0456
GGAAACCGCUCGUCC	0.176	0.295 / 0.321 / 0.248	0.0808 / 0.134 / 0.100	0.0644 / 0 / 0
GGAAACCGCUCGUGC	0.256	0.377 / 0.386 / 0.381	0.129 / 0.0668 / 0.160	0.0483 / 0.0151 / 0.0684
GGAAACCGCUCGUUC	0.224	0.197 / 0.257 / 0.362	0.113 / 0.0891 / 0.220	0.0322 / 0.0605 / 0.0684
GGAAACCGCUCUAAC	0.240	0.0819 / 0.225 / 0.133	0.0162 / 0.0223 / 0	0.0161 / 0.0151 / 0
GGAAACCGCUCUACC	0.288	0.0655 / 0.145 / 0.0571	0.0162 / 0 / 0.0200	0 / 0 / 0
GGAAACCGCUCUAGC	0.208	0.213 / 0.161 / 0.0762	0.0162 / 0 / 0.0401	0.0161 / 0 / 0
GGAAACCGCUCUAUC	0.224	0.0655 / 0.0643 / 0.133	0.0162 / 0 / 0.0401	0 / 0.0454 / 0
GGAAACCGCUCUCAC	0.272	0.115 / 0.177 / 0.152	0 / 0 / 0.0200	0 / 0 / 0
GGAAACCGCUCUCCC	0.160	0.344 / 0.386 / 0.400	0 / 0 / 0.0200	0 / 0 / 0
GGAAACCGCUCUCGC	0.176	0.0819 / 0.161 / 0.133	0.0162 / 0 / 0	0 / 0 / 0.0228
GGAAACCGCUCUCUC	0.304	0.0819 / 0.112 / 0	0.0323 / 0 / 0	0 / 0 / 0
GGAAACCGCUCUGAC	0.176	0.115 / 0.193 / 0.209	0.0323 / 0.0223 / 0.0200	0.0322 / 0 / 0
GGAAACCGCUCUGCC	0.304	0.0655 / 0.0964 / 0.0571	0 / 0.0223 / 0.0401	0 / 0 / 0
GGAAACCGCUCUGGC	0.256	0.0164 / 0.0643 / 0.133	0 / 0 / 0.0401	0 / 0 / 0
GGAAACCGCUCUGUC	0.176	0.147 / 0.273 / 0.171	0.0323 / 0 / 0	0.0161 / 0 / 0
GGAAACCGCUCUUAC	0.192	0.344 / 0.321 / 0.343	0.0970 / 0.223 / 0.160	0.0161 / 0.0605 / 0.137
GGAAACCGCUCUUCC	0.224	0.180 / 0.0643 / 0.0952	0 / 0.0223 / 0	0 / 0 / 0
GGAAACCGCUCUUGC	0.256	0.115 / 0.161 / 0.0381	0 / 0.0223 / 0.0200	0 / 0 / 0
GGAAACCGCUCUUUC	0.112	0.426 / 0.353 / 0.476	0.0970 / 0.0223 / 0.120	0.0161 / 0 / 0
GGAAACCGCUGAAAC	0.256	0.0819 / 0.0803 / 0.0762	0 / 0.0223 / 0	0 / 0 / 0
GGAAACCGCUGAACC	0.208	0.0819 / 0.0964 / 0.0952	0 / 0 / 0	0 / 0 / 0
GGAAACCGCUGAAGC	0.176	0.115 / 0.112 / 0.114	0 / 0 / 0	0 / 0 / 0

With 43,870-66,106 reads a sample, very low values are single reads.
The authors trace changes outside the varied positions to PCR and sequencing errors or to mutation in the plant; presence does not show that a variant is infectious alone.

Reference: Wu et al. 2024, doi:10.1371/journal.ppat.1012142.